A mixed list of measured activities; the numbers were collected in NIAID ChemDB.

All rows: growth or infection tests; agent: Hepatitis B virus; cell line: HepG2.117; endpoint: EC50

Blank or dashed fields: not listed here. a–b is a range or a potency band. ECn: concentration that inhibits the pathogen or its effect by n%. Rows are shuffled and stem from different studies.

compound,method,conditions,result
CNC(=O)c1ccc(-n2c(=O)c3c(n4ncc(Cc5ccccc5)c24)CN(C(=O)c2ccc(Br)c(Cl)c2)[C@H](C)C3)cc1,PCR,3 d,<0.1 µM
N#Cc1cc(C(=O)N2CCS(=O)(=O)[C@@](F)(c3ncc(Cc4ccccc4)s3)C2)ccc1Br,PCR,-,<0.1 µM
Cc1n[nH]nc1-c1cc(-n2c(=O)c3c(n4ncc(Cc5ccccc5)c24)CN(C(=O)c2ccc(Br)c(C(F)(F)F)c2)[C@H](C)C3)nn1C,luminescence,-,≤0.05 µM
COc1ccc(-n2c(C(=O)N[C@@H](c3ccccc3)C3CC3)c3n(c2=O)CCN(C(=O)c2ccc(Br)c(Cl)c2)C3)cc1,PCR,-,0.5–5 µM
CNC(=O)c1ccc(-n2c(=O)c3c(n4ncc(NCc5ccccc5)c24)CN(C(=O)c2ccc(Cl)c(Cl)c2)CC3)cc1,PCR,3 d,<0.1 µM
CNC(=O)c1ccc(-n2c(=O)c3c(n4ncc(Cc5ccccc5)c24)CN(C(=O)c2ccc(Br)c(C(F)(F)F)c2)[C@H](C)C3)nc1,luminescence,-,0.05–0.5 µM
CNC(=O)c1ccc(-n2c(=O)c3c(n4ncc(NCc5ccc(OC(F)(F)F)cc5)c24)CN(C(=O)c2ccc(Br)c(Cl)c2)CC3)cc1,PCR,3 d,<0.1 µM
NS(=O)(=O)c1cccc(-n2c(C(=O)NCc3ccccc3)c3n(c2=O)CCN(C(=O)c2ccc(Br)c(Cl)c2)C3)c1,PCR,-,>5 µM
C[C@H]1Cc2c(n3ncc(Cc4ccccc4)c3n(-c3ccc(-c4nc(=O)on4C)cc3)c2=O)CN1C(=O)c1ccc(Br)c(C(F)(F)F)c1,luminescence,-,≤0.05 µM
C[C@H](NC(=O)c1c2n(c(=O)n1-c1ccc(OC3CC3)cc1)CCN(C(=O)c1ccc(Br)c(Cl)c1)C2)c1ccc(OCC(N)=O)cc1-n1cccn1,PCR,-,>0.5 µM
CC(C)CNC(=O)c1cnn2c3c(c(=O)n(-c4ccccc4)c12)CCN(C(=O)c1ccc(Cl)c(Cl)c1)C3,PCR,3 d,>5 µM
Cc1cc(Cl)ccc1C(=O)N1CCS(=O)(=O)[C@@H](c2cccs2)C1,PCR,-,0.5–5 µM
Cc1n[nH]nc1-c1ccc(-n2c(=O)c3c(n4ncc(CC(C)C)c24)CN(C(=O)c2ccc(Cl)c(C(F)(F)F)c2)[C@@H](C)C3)cc1,luminescence,-,0.5–5 µM
O=C(c1ccc(Cl)cc1F)N1CCS(=O)(=O)[C@@H](c2cccs2)C1,PCR,-,0.5–5 µM
O=C(NC1CC1)c1ccc(-n2c(=O)c3c(n4ncc(Cc5ccccc5)c24)CN(C(=O)c2ccc(Br)c(Cl)c2)CC3)cc1,PCR,3 d,>5 µM
CNc1n[nH]c2cc(-n3c(=O)c4c(n5ncc(Cc6ccccc6)c35)CN(C(=O)c3ccc(Br)c(C(F)(F)F)c3)[C@@H](C)C4)ccc12,luminescence,-,≤0.05 µM
C[C@H](c1cnc([C@@]2(F)CN(C(=O)c3ccc(Br)c(Cl)c3)CCS2(=O)=O)s1)c1ccccc1F,PCR,-,<0.1 µM
C[C@@H](NC(=O)c1c2n(c(=O)n1-c1ccc(-n3cccn3)cc1)CCN(C(=O)c1ccc(Br)c(Cl)c1)C2)c1ccccc1F,PCR,-,<0.1 µM
CNC(=O)c1ccc(-n2c(=O)c3c(n4ncc(CC(C)C)c24)CN(C(=O)c2ccc(Cl)c(C(F)(F)F)c2)[C@H](C)C3)cc1,luminescence,-,≤0.05 µM
CNC(=O)c1ccc(-n2c(=O)c3c(n4ncc(Cc5ccccc5)c24)CN(C(=O)c2ccc(Br)c(C#N)c2)[C@@H](C)C3)cc1,PCR,3 d,0.1–0.5 µM
CC(C)Oc1ccc(-n2c(C(=O)N[C@H](C)c3ccc(C#N)cc3)c3n(c2=O)CCN(C(=O)c2ccc(Br)c(Cl)c2)C3)cc1,PCR,-,0.1–0.5 µM
N#Cc1cc(C(=O)N2CCS(=O)(=O)[C@](F)(c3ncc(Cc4ccccc4)s3)C2)ccc1Br,PCR,-,0.5–5 µM
Cn1nnc(-c2ccc(-n3c(=O)c4c(n5ncc(Cc6ccccc6)c35)CN(C(=O)c3ccc(Br)c(Cl)c3)CC4)cc2)n1,luminescence,-,≤0.05 µM
O=C(c1ccc(Br)c(Cl)c1)N1CCc2c(n3ncc(Cc4ccccc4)c3n(-c3ccccc3)c2=O)C1,PCR,3 d,0.1–0.5 µM
C[C@@H](NC(=O)c1c2n(c(=O)n1-c1ccccc1)CCN(C(=O)c1ccc(Br)c(Cl)c1)C2)c1ccccc1,PCR,-,0.5–5 µM
CNC(=O)c1ccc(-n2c(=O)c3c(n4ncc(Cc5ccccc5)c24)CN(C(=O)c2ccc(Br)cn2)CC3)cc1,PCR,3 d,0.5–5 µM
O=C(c1ccc(Br)c(Cl)c1)N1CCS(=O)(=O)[C@@](F)(c2ncc(Cc3ccccc3)o2)C1,PCR,-,<0.1 µM

3 of the rows above, restated:

compound,method,conditions,result
C[C@@H](NC(=O)c1c2n(c(=O)n1-c1ccc(-n3cccn3)cc1)CCN(C(=O)c1ccc(Br)c(Cl)c1)C2)c1ccccc1F,PCR,-,<0.1 µM
CNC(=O)c1ccc(-n2c(=O)c3c(n4ncc(CC(C)C)c24)CN(C(=O)c2ccc(Cl)c(C(F)(F)F)c2)[C@H](C)C3)cc1,luminescence,-,≤0.05 µM
N#Cc1cc(C(=O)N2CCS(=O)(=O)[C@](F)(c3ncc(Cc4ccccc4)s3)C2)ccc1Br,PCR,-,0.5–5 µM